Results as given in US8617819B2, “Polymers for analyte detection” (Massachusetts Institute of Technology, priority 2004, dated 2013).

Assay: quantum yield of streptavidin-bound dyes on direct excitation in presence of polymer 1
Assay type: physicochemical
Conditions: direct excitation at dye absorbance maximum

| Substance | decrease of quantum yield in the presence of polymer 1 |
| --- | --- |
| T-red-strept: Texas Red X-labeled streptavidin, about 2.9 dyes/protein | about 63% |
| RhB-strept: rhodamine B-labeled streptavidin, about 4.6 dyes/protein | about 38% |
